Assay results: patent US11760722B2 (priority 2022, dated 2023)
Structures were worked out from names or drawings and are uncertain.

How the values were obtained:
[1] = tested on: human coronavirus (HCoV) 229E; conditions: read-out: 229E CPE EC50, MRCS cells, 3 days, CellTiter Glo
SARS-CoV-2 replicon = assay: SARS-CoV-2 cell-based replicon assay in Huh7 cells (GFP expression); conditions: read-out: Replicon EC50; Huh7 cells transfected with SARS-CoV-2 replicon RNA, 1 day, inhibition of GFP expression

CC(C)(C)[C@H](NC(=O)CC12CC3CC(CC(C3)C1)C2)C(=O)N1C[C@H]2[C@@H]([C@H]1C(=O)N[C@H](C#N)C[C@@H]1CCNC1=O)C2(C)C
EC50 [1]: 1700 nM | EC50 (SARS-CoV-2 replicon): 1250 nM
